Measured values from several laboratories, pooled; numbers as filed in NIAID ChemDB.

All rows: tests in culture; species: Human cytomegalovirus; endpoint: EC50

An empty or dashed field is not shown.

SMILES | strain | cells | method | result
CCCCCCCCCCCCCCCCCCOCCOP(=O)(O)CO[C@H](CO)Cn1ccc(N)nc1=O | TOWNE | MRC-5 | plaque count | 0.0009 µM
Nc1ccn(C[C@@H](CO)OCP(=O)(O)O)c(=O)n1 | DER521 (ganciclovir cidofovir-resistant) | HEL | plaque count | 3.23 µM
Nc1nc(N)c2ncn(C[C@H]3CO[C@H](P(=O)(O)O)O3)c2n1 | WF1 | FLOW 2002 | plaque count | 8 µg/mL
Nc1nc2c(ncn2COC(CO)CO)c(=O)[nH]1 | TOWNE | - | plaque count | 10.8 µM
Cc1cc([C@H]2C[C@H](O)[C@@H](CO)O2)c(Cl)cc1F | AD169 | HEL | cytopathic effect | >200 µM
Nc1nc(N)c2ncn(C[C@H]3CC[C@@H](P(=O)(O)O)O3)c2n1 | - | WI-38 | plaque count | >50 µg/mL
Nc1nc2c(ncn2COC(CO)CO)c(=O)[nH]1 | C9213 | MRC-5 | plaque count | 7 µM
Nc1ccn(C[C@@H](CO)OCP(=O)(O)O)c(=O)n1 | P8 ganciclovir-sensitive | MRC-5 | plaque count | 0.4 µg/mL
OC[C@H]1O[C@@H](c2cc(F)c(F)cc2F)C[C@@H]1O | DAVIS | HEL | cytopathic effect | >200 µM
O=C(NCc1ccc(Cl)cc1)c1c[nH]c2c(F)cc(CCCO)cc2c1=O | DAVIS | - | plaque count | 1.2 µM
Nc1ccn(C[C@@H](CO)OCP(=O)(O)O)c(=O)n1 | AD169 | HEL | plaque count | 0.18 µM
Nc1nc2c(ncn2[C@H]2C=C[C@@H](CO)CC2)c(=O)[nH]1 | - | VERO | cytopathic effect | 1–10 µM
O=C(NCc1ccc(Cl)cc1)c1c[nH]c2ccc(CCCO)cc2c1=O | Clinical isolates | - | plaque count | 1 µM
Nc1nc2c(ncn2COC(CO)CO)c(=O)[nH]1 | DAVIS | HELF | plaque count | 7.4 µM
N#Cc1cc([C@H]2C[C@H](O)[C@@H](CO)O2)c(F)cc1F | AD169 | HEL | cytopathic effect | >200 µM
OC[C@H]1O[C@@H](n2c(Br)nc3cc(Cl)c(Cl)cc32)[C@H](O)[C@@H]1O | R56 | - | plaque count | 7.6 µM
Nc1nc(=O)n([C@@H]2O[C@H](CO)[C@@H](O)[C@@H]2F)cc1I | WF1 | FLOW 2002 | plaque count | 0.84 µg/mL
NC(=O)c1c(Cl)c(-c2cccnc2)n2c1CCCC2 | DER521 (ganciclovir cidofovir-resistant) | HEL | plaque count | 0.0181 µM
Nc1nc2c(ncn2C=C2CC2CO)c(=O)[nH]1 | VR5611 (ganciclovir-susceptible) | - | plaque count | 1.9 µM
Nc1ccn(C[C@H]2COP(=O)(O)CO2)c(=O)n1 | DAVIS | HEL | plaque count | 0.72 µM
[O-][n+]1onc2ncnc(N3CC[N+]4(CC3)CC[N+]3(CCN(c5ncnc6no[n+]([O-])c56)CC3)CC4)c21 | AD169 | HELF | plaque count | 0.85 µM
Nc1ccn([C@@H]2O[C@@H](CO)[C@H](O)[C@H]2O)c(=O)n1 | WF1 | FLOW 2002 | plaque count | 6 µg/mL
Nc1nc2c(ncn2C[C@@H]2CC[C@@H](P(=O)(O)O)O2)c(=O)[nH]1 | - | WI-38 | plaque count | 0.1–1 µg/mL
C=C1[C@H](O)[C@H](CO)O[C@@H]1n1ccc(N)nc1=O | WF1 | FLOW 2002 | plaque count | 100 µg/mL
OC[C@H]1O[C@H](c2cc(I)c(F)cc2F)C[C@@H]1O | AD169 | HEL | cytopathic effect | 111 µM
Nc1nc2c(ncn2C[C@@H]2CO[C@H](P(=O)(O)O)O2)c(=O)[nH]1 | WF1 | FLOW 2002 | plaque count | 15 µg/mL
COc1cccc(N2CCN(C3=Nc4c(F)cccc4[C@H](CC(=O)O)N3c3cc(C(F)(F)F)ccc3OC)CC2)c1 | Clinical isolate 11 | - | plaque count | 0.0011 µM
Cc1cc([C@H]2C[C@H](O)[C@@H](CO)O2)c(F)cc1Cl | DAVIS | HEL | cytopathic effect | >200 µM
Nc1ccn([C@@H]2C[C@@H](O)[C@H](CO)O2)c(=O)n1 | WF1 | FLOW 2002 | plaque count | >100 µg/mL
O=C(NCc1ccc(Cl)cc1)c1c[nH]c2ccc(C#CCO)cc2c1=O | NEW | - | plaque count | 1.2 µM
CCCCCCCCCCCCCCCCOCCCOP(=O)(O)CO[C@H](CO)Cn1ccc(N)nc1=O | C8914-6 drug-resistant mutant | MRC-5 | plaque count | 0.0025 µM
Cn1cc(C(=O)NCc2ccc(Cl)cc2)c(=O)c2cc(/C=C\CO)cc(F)c21 | AD169 | VERO | plaque count | 0.5 µM
Nc1nc2c(ncn2[C@@H]2C[C@H](CO)[C@H]2CO)c(=O)[nH]1 | - | VERO | cytopathic effect | 1–10 µM
Nc1ncnc2c1ncn2C[C@H]1COP(=O)(O)CO1 | AD169 | HEL | hybridisation | 0.16 µM
Nc1ccn(C[C@H]2COP(=O)(O)CO2)c(=O)n1 | C9208/3-3-1 | MRC-5 | plaque count | 1.3 µM
Nc1nc2c(ncn2C[C@]2(CO)C[C@H]2CO)c(=O)[nH]1 | - | VERO | cytopathic effect | 10–100 µM
CC(C)Nc1nc2cc(Cl)c(Cl)cc2n1[C@H]1O[C@@H](CO)[C@H](O)[C@@H]1O | AD169 | MRC-5 | plaque count | 0.54 µM
Nc1nc2c(ncn2C[C@@H]2CC[C@H](P(=O)(O)O)O2)c(=O)[nH]1 | WF1 | FLOW 2002 | plaque count | 0.5 µg/mL
Cc1cc([C@@H]2C[C@H](O)[C@@H](CO)O2)c(F)cc1Cl | AD169 | HEL | cytopathic effect | 92 µM
Nc1nc2c(ncn2COC(CO)CO)c(=O)[nH]1 | C9209/1-4-4 drug-resistant | HFF | plaque count | 98 µM
Nc1nc2c(ncn2COC(CO)CO)c(=O)[nH]1 | C8805-37 (ganciclovir-resistant) | MRC-5 | plaque count | 12 µg/mL
Nc1nc(N)c2ncn(C[C@@H]3CC[C@@H](P(=O)(O)O)O3)c2n1 | - | WI-38 | plaque count | >10 µg/mL
Nc1nc2c(ncn2C[C@H]2CO[C@H](P(=O)(O)O)O2)c(=O)[nH]1 | WF1 | FLOW 2002 | plaque count | 1.2 µg/mL
O[C@@H]1[C@H](O)[C@H](O)CO[C@H]1n1c(Br)nc2cc(Cl)c(Cl)cc21 | C9209/1-4-4 drug-resistant | HFF | plaque count | 3.5 µM
Nc1ncnc2c1ncn2C=C1CC1CO | TOWNE | KB | plaque count | 2 µM
Cn1cc(C(=O)NCc2ccc(Cl)cc2)c(=O)c2cc(CN3CCOCC3)ccc21 | AD169-M1 | VERO | plaque count | 4 µM

Repeating the first 6 entries:

SMILES,strain,cells,method,result
CCCCCCCCCCCCCCCCCCOCCOP(=O)(O)CO[C@H](CO)Cn1ccc(N)nc1=O,TOWNE,MRC-5,plaque count,0.0009 µM
Nc1ccn(C[C@@H](CO)OCP(=O)(O)O)c(=O)n1,DER521 (ganciclovir cidofovir-resistant),HEL,plaque count,3.23 µM
Nc1nc(N)c2ncn(C[C@H]3CO[C@H](P(=O)(O)O)O3)c2n1,WF1,FLOW 2002,plaque count,8 µg/mL
Nc1nc2c(ncn2COC(CO)CO)c(=O)[nH]1,TOWNE,-,plaque count,10.8 µM
Cc1cc([C@H]2C[C@H](O)[C@@H](CO)O2)c(Cl)cc1F,AD169,HEL,cytopathic effect,>200 µM
Nc1nc(N)c2ncn(C[C@H]3CC[C@@H](P(=O)(O)O)O3)c2n1,-,WI-38,plaque count,>50 µg/mL

ECn: concentration that inhibits the pathogen or its effect by n%. Conditions beyond the fields shown may differ between rows. Two numbers with a dash give a range or band.